Anti-infective test results gathered from many reports (values: NIAID ChemDB through PubChem).

Common to all: tests in culture; species: HIV-1; cell line: C8166; endpoint: EC50

ECn is the concentration giving n% inhibition of infection, replication or growth.

CC(=O)O[C@@]12[C@H](OC(=O)/C=C/c3ccccc3)[C@@H](C)[C@@]3(O)[C@@H](C=C(CO)C[C@]4(O)C(=O)C(C)=C[C@@H]34)[C@@H]1C2(C)C ; strain or isolate: IIIB ; method: p24 / ELISA ; result: 0.014 µM
Cc1cn([C@H]2C[C@H](N=[N+]=[N-])[C@@H](CO)O2)c(=O)[nH]c1=O ; strain or isolate: A17 ; method: p24 / ELISA / antigen ; result: 0.01613 µM
CCN1c2ncc(CCOc3ccc(-c4cc[n+](C)cc4)cc3C)cc2C(=O)N(C)c2cccnc21.[O-]C(F)(F)F ; changes: RT-K103N Y181C ; method: p24 ; result: <0.01 µM
CCc1ccc(-c2c(C(OC(C)(C)C)C(=O)O)c(C)nc3ccccc23)cc1 ; method: luciferase / reporter gene ; result: <20 µM
CCN1c2ncc(CCOc3ccc(-c4ccc(C(=O)O)s4)cc3)cc2C(=O)N(C)c2cccnc21 ; changes: RT-K103N Y181C ; method: p24 ; result: 0.01–0.05 µM
CCN1C(=O)NC(=O)C(C(C)C)C1CC1CC(C)CC(C#N)C1=O ; changes: K103N ; method: p24 / ELISA ; result: 0.253 µM
CCN1c2ncc(CCOc3ccc(C(=O)Nc4cccnc4C)cc3C)cc2C(=O)N(C)c2cccnc21 ; changes: RT-K103N Y181C ; method: p24 ; result: <0.01 µM
COc1ccc(-c2c(C(OC(C)C)C(=O)O)c(C)nc3ccc(Cl)cc23)cc1OC ; method: luciferase / reporter gene ; result: <20 µM
CC/C=C\C/C=C\C/C=C\C/C=C\C/C=C\CCCC(=O)O[C@@H]1[C@@H](C)[C@@]2(O)[C@@H](C=C(COC(C)=O)C[C@]3(O)C(=O)C(C)=C[C@@H]23)[C@@H]2C(C)(C)[C@]12O ; strain or isolate: IIIB ; method: p24 / ELISA ; result: 5.08 µM
CCc1ccc(-c2c([C@H](OC(C)(C)C)C(=O)O)c(C)nc3ccc(Cl)cc23)cc1 ; method: luciferase / reporter gene ; result: <20 µM
CCN1c2ncc(CCOc3ccc(-c4ccncc4)cc3C)cc2C(=O)N(C)c2cccnc21 ; changes: RT-K103N Y181C ; method: p24 ; result: <0.01 µM
CCCC(C(=O)O)c1c(-c2ccc(Cl)cc2)c2ccccc2[nH]c1=O ; method: luciferase / reporter gene ; result: <20 µM
CCCCCCCCC(=O)O[C@@H]1[C@@H](C)[C@@]2(O)[C@@H](C=C(CO)C[C@]3(O)C(=O)C(C)=C[C@@H]23)[C@@H]2C(C)(C)[C@]12OC(=O)CCCCCCCC ; strain or isolate: IIIB ; method: p24 / ELISA ; result: 0.0046 µM
CCN1c2ncc(CCOc3ccc(-c4ccc(N)c(C(=O)O)c4)cc3C)cc2C(=O)N(C)c2cccnc21 ; strain or isolate: IIIB ; method: p24 ; result: <0.01 µM
CCc1ccc(-c2c(C(Oc3ccccc3)C(=O)O)c(C)nc3ccc(Cl)cc23)cc1 ; method: luciferase / reporter gene ; result: <20 µM
CCCCCCCCC(=O)O[C@@]12[C@H](OC(=O)/C=C/c3ccc4c(c3)OCO4)[C@@H](C)[C@@]3(O)[C@@H](C=C(CO)C[C@]4(O)C(=O)C(C)=C[C@@H]34)[C@@H]1C2(C)C ; strain or isolate: IIIB ; method: syncytia / visual reading ; result: 0.0262 µM
COC(C(=O)O)c1c(C)nc2ccc(Cl)cc2c1-c1ccc2cc[nH]c2c1 ; method: luciferase / reporter gene ; result: <20 µM
CC(=O)O[C@@]12[C@H](OC(=O)/C=C/c3ccc(Cl)cc3)[C@@H](C)[C@@]3(O)[C@@H](C=C(CO)C[C@]4(O)C(=O)C(C)=C[C@@H]34)[C@@H]1C2(C)C ; method: p24 / ELISA ; result: 0.0246 µM

Repeating the first 2 entries:

compound,strain or isolate,changes,method,result
CC(=O)O[C@@]12[C@H](OC(=O)/C=C/c3ccccc3)[C@@H](C)[C@@]3(O)[C@@H](C=C(CO)C[C@]4(O)C(=O)C(C)=C[C@@H]34)[C@@H]1C2(C)C,IIIB,-,p24 / ELISA,0.014 µM
Cc1cn([C@H]2C[C@H](N=[N+]=[N-])[C@@H](CO)O2)c(=O)[nH]c1=O,A17,-,p24 / ELISA / antigen,0.01613 µM

An empty or dashed field is not shown. a–b is a range or a potency band. Lines come from different laboratories, so protocols vary.